According to article PMC8933513 (2022):

Molecular target: porcine aminopeptidase N ectodomain K374A (pig) (UniProt P15145)
Assay: SPR; BIAcore X-100, room temperature; hAPN/pAPN WT or mutant immobilised on CM5 chips via amine coupling; serially diluted PDCoV RBD WT or mutant flowed over in HEPES buffer (0.01 M HEPES, 0.15 M NaCl, 0.5% surfactant P20, 3 mM EDTA, pH 7.4); steady-state affinity model; each of two experiments listed

Work on “PDCoV RBD (receptor binding domain of the porcine deltacoronavirus spike protein), wild type (domain or fragment)” yielded a Kd of 25.2 µM.
